Assay: Non-nucleoside inhibition of NS5B polymerase S365A mutant in HCV genotype 1a by Taqman probe based RT-PCR analysis

SMILES: CNC(=O)c1c(-c2ccc(F)cc2)oc2cc(N(C)S(C)(=O)=O)c(-c3ccc4c(n3)-c3cc5c(F)cccc5n3CO4)cc12 [US9265773, 2]
- EC50: 1 nM
